Anti-infective test results gathered from many reports (values: NIAID ChemDB through PubChem).

All rows: whole-cell or culture tests; species: Aspergillus flavus; measure: zone

Rows are shuffled and stem from different studies. Blank or dashed fields: not listed here. Zone: diameter of growth inhibition.

Cc1cc(=O)oc2cc(OCCCCCCn3cc(CN4CCCCC4)nn3)ccc12 ; strain: MTCC 277 ; dose: 100 µg/mL ; read by: agar diffusion ; result: 14.7 mm
N=C1C(=S)N(c2ccc(F)cc2)C(=O)N1c1cc(Cl)cc(Cl)c1 ; dose: 5 mg/mL ; read by: agar diffusion / agar ; result: 14 mm
COc1ccc2[nH]c3nc(-n4[nH]c(=O)c5ccccc5c4=O)c4ccccc4c3c2c1 ; strain: MTCC-1973 ; dose: 3.125 µg/mL ; read by: agar diffusion / visual reading ; result: 13 mm
COc1ccc(C2C(C#N)=C(N)N=C3Sc4cc(C)ccc4N32)cc1OC ; dose: 5000 µg/mL ; read by: agar diffusion ; result: 9 mm
CN(C)c1ccc(C2c3ccc4ccccc4c3Oc3nc(-c4cc5ccccc5oc4=O)[nH]c(=O)c32)cc1 ; dose: 150 µg/mL ; read by: agar diffusion / agar ; result: 16 mm
COc1ccc(N2C(=O)N(c3ccc(Cl)c(C(F)(F)F)c3)C(=N)C2=S)cc1 ; dose: 5 mg/mL ; read by: agar diffusion / agar ; result: 14 mm
O=c1[nH]c(-c2cc3ccccc3oc2=O)nc2c1C(c1ccccc1)c1ccc3ccccc3c1O2 ; dose: 100 µg/mL ; read by: agar diffusion / agar ; result: 11 mm
O=C1NC(=O)C(Cc2nc3ccccc3[nH]2)S1 ; dose: 20000 µg/mL ; result: <7 mm
CN(Cc1cc2ccccc2nc1Cl)c1ccc(Cl)c(Cl)c1 ; strain: MTCC 277 ; dose: 200 µg/mL ; read by: agar diffusion ; result: 19.52 mm
Nc1nc(COC(=O)c2cccc([N+](=O)[O-])c2Cl)cs1 ; strain: NCIM No. 524 ; dose: 25 µg/mL ; result: <10 mm
Cc1ccc(N=c2cc(N)nc3sc(S(N)(=O)=O)nn23)cc1 ; dose: 5000 µg/mL ; read by: agar diffusion ; result: 10 mm
Clc1nc2ccccc2cc1CNCc1ccccc1 ; strain: MTCC 277 ; dose: 200 µg/mL ; read by: agar diffusion ; result: 14.49 mm
Nc1nc(COC(=O)c2c(F)cccc2Cl)cs1 ; strain: NCIM No. 524 ; dose: 25 µg/mL ; result: <10 mm
O=C1NC(=O)C(Cc2nc3ccccc3c3nc(=S)[nH]n23)S1 ; dose: 20000 µg/mL ; result: 11 mm
COc1cc(N2C(=N)C(=S)N(c3ccc(F)cc3)C2=O)ccc1-c1ccc(N2C(=N)C(=S)N(c3ccc(F)cc3)C2=O)cc1OC ; dose: 5 mg/mL ; read by: agar diffusion / agar ; result: 16 mm
CC(=O)Nc1ccc(F)cc1Sc1ncccc1[N+](=O)[O-] ; strain: MTCC 277 ; dose: 100 µg/mL ; result: 10 mm
C[C@H]1[C@H](O)[C@@H](C)/C=C/C=C/C=C/C=C/C=C/C=C/C=C/[C@H](O[C@@H]2O[C@H](C)[C@@H](O)[C@H](N)[C@@H]2O)C[C@@H]2O[C@](O)(C[C@@H](O)C[C@@H](O)CC[C@H](O)[C@@H](O)C[C@@H](O)CC(=O)O[C@H]1C)C[C@H](O)[C@H]2C(=O)O ; dose: 150 µg/mL ; read by: agar diffusion / agar ; result: 25 mm
COc1c(N2CC3CCCNC3C2)c(F)cc2c(=O)c(C(=O)[O-])cn(C3CC3)c12.[Cl][Mn+].c1c[nH]cn1 ; dose: 100 µM ; read by: agar diffusion ; result: 0 mm
O=C(NN=CC1C(c2ccccc2)=Nc2ccccc21)N1c2ccccc2C=Cc2ccccc21 ; strain: MTCC-1973 ; dose: 1000 µg/mL ; read by: agar diffusion ; result: 10 mm
Fc1ccc(NCc2cc3ccccc3nc2Cl)cc1 ; strain: MTCC 277 ; dose: 200 µg/mL ; read by: agar diffusion ; result: 15.03 mm
O=c1[nH]n(-c2nc3[nH]c4ccc(Cl)cc4c3c3ccccc23)c(=O)c2ccccc12 ; strain: MTCC-1973 ; dose: 12.5 µg/mL ; read by: agar diffusion / visual reading ; result: 3 mm
CC(=O)Nc1ccc(Br)cc1Sc1ncccc1[N+](=O)[O-] ; strain: MTCC 277 ; dose: 100 µg/mL ; result: 12 mm
Cc1ccsc1/C=N/NC(N)=O ; dose: 250 µg/mL ; read by: agar diffusion ; result: 0 mm
O=C(NN=CC1C(c2ccccc2)=Nc2ccc(Cl)cc21)N1c2ccccc2C=Cc2ccccc21 ; strain: MTCC-1973 ; dose: 1000 µg/mL ; read by: agar diffusion ; result: 14 mm
Cc1nc2ccccc2n(CC(=O)NN2C(=O)CSC2c2ccccc2O)c1=O ; dose: 50 µg/mL ; result: 8 mm
O=c1[nH]c(-c2cc3ccccc3oc2=O)nc2c1C(c1cccc([N+](=O)[O-])c1)c1ccc3ccccc3c1O2 ; dose: 100 µg/mL ; read by: agar diffusion / agar ; result: 9 mm
COc1ccc2nc3n4c(c5ccccc5c-3c2c1)NN=C(c1ccc(C)cc1)C4 ; strain: MTCC-1973 ; dose: 3.125 µg/mL ; read by: agar diffusion / visual reading ; result: 13 mm
CC(=O)Nc1ccc(Cl)cc1Sc1ncccc1[N+](=O)[O-] ; strain: MTCC 277 ; dose: 100 µg/mL ; result: 12 mm
CC(=Nc1cccc2cccc(N=C(C)c3c(O)ccc4c(C)cc(=O)oc34)c12)c1c(O)ccc2c(C)cc(=O)oc12 ; strain: MTCC 1883 ; dose: 100 µg/mL ; result: 6 mm
Clc1ccc2c(c1)Sc1cccnc1N2CCCCCCN1c2ccc(Cl)cc2Sc2cccnc21 ; strain: MTCC 277 ; dose: 100 µg/mL ; result: 10 mm
CN(C)C=O ; dose: 100 µg/mL ; result: 6 mm
Cc1nc2ccccc2n(CC(=O)NN2C(=O)CSC2c2ccc([N+](=O)[O-])cc2)c1=O ; dose: 100 µg/mL ; result: 20 mm
NC(=S)N/N=C/c1ccccc1O ; dose: 2 mg/mL ; read by: agar diffusion / agar ; result: 13 mm
Clc1ccccc1NCc1cc2ccccc2nc1Cl ; strain: MTCC 277 ; dose: 200 µg/mL ; read by: agar diffusion ; result: 10.6 mm
C[C@@H]1[C@H](O)[C@@H](C)/C=C/C=C/C=C/C=C/C=C/C=C/C=C/[C@H](O[C@@H]2O[C@H](C)[C@@H](O)[C@H](N)[C@@H]2O)C[C@@H]2O[C@](O)(C[C@@H](O)C[C@@H](O)[C@H](O)CC[C@@H](O)C[C@@H](O)CC(=O)O[C@H]1C)C[C@H](O)[C@H]2C(=O)O ; dose: 30 µg/disc ; read by: agar diffusion / agar ; result: 19 mm
Nc1nc(COC(=O)c2cccs2)cs1 ; strain: NCIM No. 524 ; dose: 25 µg/mL ; result: <10 mm
Cc1ccc2c(c1)C(C=NNC(=O)N1c3ccccc3C=Cc3ccccc31)C(c1ccccc1)=N2 ; strain: MTCC-1973 ; dose: 500 µg/mL ; read by: agar diffusion ; result: 2 mm
Cc1nc2ccccc2n(CC(=O)NN2C(=O)CSC2c2ccccc2F)c1=O ; dose: 100 µg/mL ; result: 14 mm
O=C1NC(=O)C(Cc2nc3ccccc3c(=O)o2)S1 ; dose: 20000 µg/mL ; result: 9 mm
Cc1nc2ccccc2n(CC(=O)NN2C(=O)CSC2c2ccc(O)cc2)c1=O ; dose: 100 µg/mL ; result: 21 mm
N#Cc1ccc(C(=O)OCc2csc(N)n2)cn1 ; strain: NCIM No. 524 ; dose: 25 µg/mL ; result: <10 mm
COc1ccc(C2=NNc3c4ccccc4c4c5cc(OC)ccc5nc-4n3C2)cc1 ; strain: MTCC-1973 ; dose: 25 µg/mL ; read by: agar diffusion / visual reading ; result: 6 mm
COC1=CC(=O)C[C@@H](C)[C@]12Oc1c(Cl)c(OC)cc(OC)c1C2=O ; dose: 5 mg/mL ; read by: agar diffusion / agar ; result: 19 mm

The first 4 rows once more:

smiles,strain,dose,read by,result
Cc1cc(=O)oc2cc(OCCCCCCn3cc(CN4CCCCC4)nn3)ccc12,MTCC 277,100 µg/mL,agar diffusion,14.7 mm
N=C1C(=S)N(c2ccc(F)cc2)C(=O)N1c1cc(Cl)cc(Cl)c1,,5 mg/mL,agar diffusion / agar,14 mm
COc1ccc2[nH]c3nc(-n4[nH]c(=O)c5ccccc5c4=O)c4ccccc4c3c2c1,MTCC-1973,3.125 µg/mL,agar diffusion / visual reading,13 mm
COc1ccc(C2C(C#N)=C(N)N=C3Sc4cc(C)ccc4N32)cc1OC,,5000 µg/mL,agar diffusion,9 mm